Measured data: PubChem BioAssay AID624099 (ICCB-Longwood, 2012)
Shown is an unselected part of about 21,000 reagents. In the full data, 497 (2.4%) are marked active. 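Higher z means weaker E2 silencing; only reporter increases were scored, and knock-downs that hurt cell survival may mask genuine repressor factors.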 Reagents against one gene are numbered here. Reagent sequences are not shown.

- Screen: 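Knock-downs relieving repression by E2 of an HPV18 LCR luciferase reporter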 (primary screen)
- Cells: human C33A cervical carcinoma cells (HPV-negative) stably expressing BPV1 E2 and an HPV18 LCR luciferase reporter
- Knock-down reagent: siRNA pool against human genes, 40 nM
- Time to read-out: 72 h
- Detection: 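HPV18 LCR reporter light per well, converted to plate-wise z-scores that exclude control wells, and averaged over triplicate plates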
- Reading the numbers: mean z-score and z-score: higher = stronger reporter signal, weaker E2 silencing
- Rule for the call: 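Hit if mean z-score reaches 2 and two or more of three replicate z-scores also reach 2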

LUC7L3 #1
- mean z-score: 0.4
- z-score, replicate A: 0.4
- z-score, replicate B: 0.52
- z-score, replicate C: 0.29
- activity call: inactive

LUC7L3 #2
- mean z-score: -2.18
- z-score, replicate A: -1.85
- z-score, replicate B: -2.18
- z-score, replicate C: -2.52
- activity call: inactive

GOLGA5
- mean z-score: 0.96
- z-score, replicate A: 1.28
- z-score, replicate B: 0.76
- z-score, replicate C: 0.83
- activity call: inactive

ACHE
- mean z-score: 1.11
- z-score, replicate A: 0.86
- z-score, replicate B: 1.54
- z-score, replicate C: 0.94
- activity call: inactive

TNFRSF11A
- mean z-score: 0
- z-score, replicate A: 0.13
- z-score, replicate B: -0.05
- z-score, replicate C: -0.09
- activity call: inactive

BPIFB3
- mean z-score: 1.24
- z-score, replicate A: 1.13
- z-score, replicate B: 1.03
- z-score, replicate C: 1.56
- activity call: inactive

CCDC42
- mean z-score: -0.82
- z-score, replicate A: -0.69
- z-score, replicate B: -0.68
- z-score, replicate C: -1.09
- activity call: inactive

PGR
- mean z-score: 3.92
- z-score, replicate A: 3.78
- z-score, replicate B: 3.92
- z-score, replicate C: 4.05
- activity call: active

OR5H1
- mean z-score: 0.28
- z-score, replicate A: 0.04
- z-score, replicate B: 0.57
- z-score, replicate C: 0.23
- activity call: inactive

MBLAC2
- mean z-score: -0.75
- z-score, replicate A: -0.75
- z-score, replicate B: -0.95
- z-score, replicate C: -0.55
- activity call: inactive

ZNF600
- mean z-score: -0.07
- z-score, replicate A: 0.46
- z-score, replicate B: -0.08
- z-score, replicate C: -0.59
- activity call: inactive

PCSK6
- mean z-score: -0.54
- z-score, replicate A: -0.15
- z-score, replicate B: -0.73
- z-score, replicate C: -0.74
- activity call: inactive

PKHD1L1
- mean z-score: -0.35
- z-score, replicate A: 0.08
- z-score, replicate B: -0.69
- z-score, replicate C: -0.45
- activity call: inactive

WNT7B
- mean z-score: -1.07
- z-score, replicate A: -1.22
- z-score, replicate B: -1
- z-score, replicate C: -1
- activity call: inactive

GIMAP7
- mean z-score: 0.29
- z-score, replicate A: 0.28
- z-score, replicate B: 0.4
- z-score, replicate C: 0.18
- activity call: inactive

LOC387950 (retired record)
- mean z-score: -0.93
- z-score, replicate A: -1.23
- z-score, replicate B: -0.82
- z-score, replicate C: -0.73
- activity call: inactive

DNM1P30
- mean z-score: -0.21
- z-score, replicate A: -0.54
- z-score, replicate B: -0.11
- z-score, replicate C: 0.01
- activity call: inactive

MRI1
- mean z-score: -0.53
- z-score, replicate A: -0.82
- z-score, replicate B: -0.4
- z-score, replicate C: -0.36
- activity call: inactive

TRIP11
- mean z-score: 1.46
- z-score, replicate A: 1.7
- z-score, replicate B: 1.39
- z-score, replicate C: 1.29
- activity call: inactive

PLAC1
- mean z-score: 1.51
- z-score, replicate A: 1.65
- z-score, replicate B: 1.65
- z-score, replicate C: 1.22
- activity call: inactive

NCOA2
- mean z-score: 0.55
- z-score, replicate A: 0.37
- z-score, replicate B: 0.53
- z-score, replicate C: 0.76
- activity call: inactive
